Experimental data as given in the supplement of paper PMC8837787.

Tested on: Saccharomyces cerevisiae ABC16-Green Monster
Experiment: growth inhibition at single dose (up to 150 µM), below the 70% cut-off for dose-response; higher = more potent
Conditions: 18 h; 30 °C; YPD
Procedure, shortened: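 Values are percent growth inhibition of drug-sensitive S. cerevisiae ABC16-Green Monster cells. Cells grown overnight in YPD at 30 °C were diluted to log phase (OD600 0.1–0.2), and each library compound was added at a single dose of 150 µM to 200 µl culture per well in 96-well plates, in biological duplicates, beside untreated cultures. OD600 was read at 0 h and after 18 h at 30 °C, and compounds under 70% in both replicates were not taken to dose-response.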

| Compound | growth inhibition at single dose |
| --- | --- |
| c1ccc2c(NCCCCCCNc3c4c(nc5ccccc35)CCCC4)c3c(nc2c1)CCCC3 | < 70% |
| CCC1(C)CC(CCNCc2ccccc2O)(c2ccc(C)cc2)CCO1 (configuration not stated) | < 70% |
